Measured values reported in article PMC11436104 (Toxins, 2024).
*1 amine or outer side, *2 acyl side, *3 side chain or, on linkers, in order; H or OH if unused. Where a SMILES comes first, the peptide text is derived from it. Bridges are numbered along the chain shown (N, C = ends). [ ]: non-standard residue; d: D form. Adda = CO[C@@H](Cc1ccccc1)[C@@H](C)/C=C(C)/C=C/[C@H](N[*:1])[C@H](C)C(=O)[*:2]; dAsp(3S-Me) = C[C@H](C(=O)[*:3])[C@@H](N[*:1])C(=O)[*:2]; d(γGlu) = O=C(O)[C@@H](CCC(=O)[*:2])N[*:1]; NMeDha = C=C(NC)C(=O)O

Experiments:
[1] = target: T1, Ser/Thr protein phosphatase type-2A (PP2A) (Bos taurus, UniProt P67774); assay: Colorimetric protein phosphatase inhibition assay, p-nitrophenyl phosphate substrate; assay type: biochemical, bovine
T1 construct: PP2A; from bovine kidney; purchased Sigma P1868; host or cells: bovine kidney (tissue-purified)

[2] = target: T2, Ser/Thr protein phosphatase type-1 (PP1; α isoform catalytic subunit) (Oryctolagus cuniculus, UniProt P62139); assay: as above; assay type: biochemical, rabbit
T2 construct: purchased Sigma 539493; host or cells: Escherichia coli

For C=C1C(=O)N[C@H](C)C(=O)N[C@@H](CC(C)C)C(=O)N[C@@H](C(=O)O)[C@H](C)C(=O)N[C@@H](CCCNC(=N)N)C(=O)N[C@@H](/C=C/C(C)=C/[C@H](C)[C@H](Cc2ccccc2)OC)[C@H](C)C(=O)N[C@@H](C(=O)O)CCC(=O)N1C [MC-LR, Microcystin-LR, reference compound] (R[Adda][d(γGlu)][NMeDha][dA]L[dAsp(3S-Me)]-OH; lactam N-7), the “fold lower PP2A IC50 than PP BL1125” value [1] was “at least 370,000 fold” and the “fold lower PP1 IC50 than PP BL1125” value [2] was 25,000 fold.
